This assay concerns the target Genome polyprotein (dengue virus type 2, UniProt P29990). The experiment in a line: Functional biochemical assay to identify treatments for viral infectious disease that targets Dengue virus type 2 NS2B-NS3 protease. Utilizing a direct enzyme activity measurement method, reading the fluorescence intensity is used to characterize the relative potency of inhibitors as IC50. Synthetic construct has been made based on Dengue virus type 2 (strain Thailand/16681/1984) by Centre for Med.

Protein sequences, listed by entry. Tags and fused reporters are not part of them. Residues count along the entry.
UniProt P29990, 1346-1475 limits assumed: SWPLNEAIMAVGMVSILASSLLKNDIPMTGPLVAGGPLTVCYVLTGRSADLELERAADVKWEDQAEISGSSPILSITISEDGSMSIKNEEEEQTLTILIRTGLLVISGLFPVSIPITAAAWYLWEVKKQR
UniProt P29990, 1476-2093 limits assumed: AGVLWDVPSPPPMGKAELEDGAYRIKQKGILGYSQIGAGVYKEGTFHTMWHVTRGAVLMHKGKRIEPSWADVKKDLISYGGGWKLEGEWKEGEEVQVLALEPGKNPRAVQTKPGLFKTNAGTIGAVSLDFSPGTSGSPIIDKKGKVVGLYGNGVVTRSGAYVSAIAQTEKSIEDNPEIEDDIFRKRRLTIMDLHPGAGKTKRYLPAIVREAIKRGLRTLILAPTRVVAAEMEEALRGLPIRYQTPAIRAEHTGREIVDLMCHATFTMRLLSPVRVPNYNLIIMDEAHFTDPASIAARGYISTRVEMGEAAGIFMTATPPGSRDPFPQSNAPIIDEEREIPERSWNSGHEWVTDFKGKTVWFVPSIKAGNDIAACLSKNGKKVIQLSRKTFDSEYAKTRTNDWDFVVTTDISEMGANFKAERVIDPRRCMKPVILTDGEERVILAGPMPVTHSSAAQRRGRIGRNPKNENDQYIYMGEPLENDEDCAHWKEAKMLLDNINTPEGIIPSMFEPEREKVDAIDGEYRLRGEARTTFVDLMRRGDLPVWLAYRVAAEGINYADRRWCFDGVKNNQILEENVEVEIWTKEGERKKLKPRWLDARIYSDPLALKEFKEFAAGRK

Experimental findings from ChEMBL document CHEMBL5604063, “ASAP - DENV-2 NS2B-NS3 protease fluorescence dose response” (2024) are described below.

The IC50 is the midpoint of a concentration-inhibition curve. The low end stands for greater potency in that assay, the high end for weaker potency in that assay.

SMILES strings stand for the structures. Some compounds may have been tested in ways that are not shown here.

`c1ccc(NC2CCN(Cc3c[nH]c4ccccc34)CC2)cc1` displayed an IC50 of over 99.5 µM.
